Results of unrelated studies side by side (data: NIAID ChemDB).

Common to all: growth or infection tests; species: Mycobacterium avium

Neighbouring rows are from separate reports. Blank or dashed fields: not listed here. MIC50, MIC90 and the like: level of inhibition, or share of isolates inhibited.

compound	read-out	strain or isolate	setting	method	value
CC[C@H]1OC(=O)[C@H](C)[C@@H](O[C@H]2C[C@@](C)(OC)[C@@H](O)[C@H](C)O2)[C@H](C)[C@@H](O[C@@H]2O[C@H](C)C[C@H](N(C)C)[C@H]2O)[C@](C)(OC)C[C@@H](C)C(=O)[C@H](C)[C@@H](O)[C@]1(C)O	MIC	RG4	-	-	0.12 µg/mL
C[C@@H]1CN(c2c(F)c(N)c3c(=O)c(C(=O)O)cn(C4CC4)c3c2F)C[C@H](C)N1	MIC	PI4/44	-	-	0.5 µg/mL
CC[C@H]1OC(=O)[C@H](C)[C@@H](O[C@H]2C[C@@](C)(OC)[C@@H](O)[C@H](C)O2)[C@H](C)[C@@H](O[C@@H]2O[C@H](C)C[C@H](N(C)C)[C@H]2O)[C@](C)(OC)C[C@@H](C)C(=O)[C@H](C)[C@@H](O)[C@]1(C)O	MIC	3354	pH 7.4	broth dilution / radiometric	4 µg/mL
NC1CCCCN(c2c(F)cc3c(=O)c(C(=O)O)cn(C4CC4)c3c2F)C1=O	MIC90	14 strains	-	-	>32 µg/mL
CCN(CC)c1nc2c(s1)c1c(O)c3c(O)c(C)c4c(c32)C(=O)[C@@](C)(O/C=C/[C@H](OC)[C@@H](C)[C@@H](OC(C)=O)[C@H](C)[C@H](O)[C@H](C)[C@@H](O)[C@@H](C)/C=C/C=C(/C)C(=O)N1)O4	MIC50	50 strains	-	-	0.58 µg/mL
CC(C)N=c1cc2n(-c3ccc(Cl)cc3)c3ccccc3nc-2cc1Nc1ccc(Cl)cc1	Mean MIC	ATCC 25291	-	-	0.39 µg/mL
CO[C@H]1/C=C/O[C@@]2(C)Oc3c(C)c(O)c4c(=O)c(c5oc6cc(N7CCN(CC(C)C)CC7)cc(=O)c6nc5c4c3=C2O)NC(=O)/C(C)=C\C=C\[C@H](C)[C@H](O)[C@@H](C)[C@@H](O)[C@@H](C)[C@H](OC(C)=O)[C@@H]1C	MIC	453	-	-	0.016 µg/mL
CC[C@@H](CO)NCCN[C@@H](CC)CO	MIC	RG0	-	-	16 µg/mL
CCC[C@@H]1C[C@@H](C(=O)N[C@@H]([C@H]2O[C@H](SC)[C@H](O)[C@@H](O)[C@H]2O)[C@@H](C)O)N(C)C1	Median MIC	ATCC 25291	-	-	96 µg/mL
CC1CN(c2c(F)c(N)c3c(=O)c(C(=O)O)cn(C4CC4)c3c2F)CCN1C	MIC	PI2/8	-	-	0.06 µg/mL
CO[C@H]1/C=C/O[C@@]2(C)Oc3c(C)c(O)c4c(O)c(c(/C=N/N5CCN(C)CC5)c(O)c4c3C2=O)NC(=O)/C(C)=C\C=C\[C@H](C)[C@H](O)[C@@H](C)[C@@H](O)[C@@H](C)[C@H](OC(C)=O)[C@@H]1C	MIC	Isolate 90-1110	-	-	30 µg/mL
CO[C@H]1/C=C/O[C@@]2(C)Oc3c(C)c(O)c4c(O)c(c(/C=N/N5CCN(C6CCCC6)CC5)c(O)c4c3C2=O)NC(=O)/C(C)=C\C=C\[C@H](C)[C@H](O)[C@@H](C)[C@@H](O)[C@@H](C)[C@H](OC(C)=O)[C@@H]1C	Median MIC	ATCC 25291	-	-	>1 µg/mL
CCn1cc(C(=O)O)c(=O)c2ccc(N3CC(O)C(O)C(O)C3)nc21	MIC	PI12/39	-	-	>32 µg/mL
CCc1cc(C(N)=S)ccn1	Median MIC	ATCC 25291	-	-	>2.8 µg/mL
Cc1cc(-c2cc3c(cc2F)c(=O)c(C(=O)O)cn3C2CC2)cc(C)n1	MBC	3337	-	-	8 µg/mL
O=C(O)c1cn(C2CC2)c2c(F)c(N3CCN4CCC3C4)c(F)cc2c1=O	MIC	RG0	-	-	0.5 µg/mL

The last 2 rows once more:

compound	read-out	strain or isolate	setting	method	value
Cc1cc(-c2cc3c(cc2F)c(=O)c(C(=O)O)cn3C2CC2)cc(C)n1	MBC	3337	-	-	8 µg/mL
O=C(O)c1cn(C2CC2)c2c(F)c(N3CCN4CCC3C4)c(F)cc2c1=O	MIC	RG0	-	-	0.5 µg/mL